{"source": "paper PMC12664589", "about": "(Journal of Structural Biology: X, 2025)", "molecular_target": "CpNce103p (Candida parapsilosis, UniProt G8B6R8)", "assay": "Stopped-flow CO2 hydration assay, inhibition of CpNce103p carbonic anhydrase", "type": "biochemical", "details": "full-length CpNce103p (2.2 nM); 3.4 mM CO2; 20 mM HEPES-Na pH 7.5; 25 °C; 15 min preincubation", "data": [{"smiles": "O=[N+]([O-])c1ccccc1[N+](=O)[O-]", "values": [{"measurement": "Ki", "result": 153, "unit": "µM"}]}]}
